Measured data: PubChem BioAssay AID504761 (Drosophila RNAi Screening Center, 2011)
In all, the deposit lists about 22,000 reagents; shown is an unselected part of those with a known target gene and a result. Of all reagents, 116 (0.52%) got an active call. 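Calls depend on retest data that are not deposited; infection was ranked per plate without normalising between plates; the unit of the infection score is not given.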 Raw values are not corrected between plates. Names joined by + are all predicted targets of the reagent. Not stated in the record: the amount of reagent, the time to read-out.

Assay: 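Insect host genes that dengue virus relies on to spread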 (primary screen)
Cells: D.Mel-2 cells from Drosophila
Reagents: long dsRNA against Drosophila genes
Conditions: infection with dengue virus type 2; dose and infection time not stated
Detection: 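Per well on two replicate plates, imaging gave the percent of cells positive for viral envelope protein, ranked by infection, and a nuclear count of cells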
Direction: infection score: higher = more virus-infected cells; cell count: higher = more cells in the well
Active means: 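Low infection ranks in the two replicates (chance level up to 0.065) followed by a retest with a 1.5-fold or larger significant decrease, p below 0.05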
Calls: active = confirmed: knock-down lowers infection; inactive = not picked or not confirmed

| gene | amplicon | infection score, replicate 1 | infection score, replicate 2 | cell count, replicate 1 | cell count, replicate 2 | activity call |
| --- | --- | --- | --- | --- | --- | --- |
| cwo | DRSC17072 | 10.7 | 22.4 | 6208 | 4497 | inactive |
| cwo | DRSC25219 | 4.99 | 2.04 | 6327 | 6507 | inactive |
| CG10996 | DRSC19363 | 10.1 | 7.15 | 5875 | 6165 | inactive |
| CG42507 + Trl | DRSC09325 | 2.95 | 4.32 | 5427 | 6464 | inactive |
| CG42507 + Trl | DRSC25045 | 3.61 | 2.77 | 6177 | 6173 | inactive |
| CG33287 | DRSC22929 | 0.32 | 14 | 6344 | 6358 | inactive |
| CG4199 | DRSC18519 | 2.55 | 0.6 | 6003 | 6377 | inactive |
| CG4199 | DRSC21314 | 0.61 | 2.63 | 6210 | 6756 | inactive |
| CG4199 | DRSC27951 | 4.05 | 9.66 | 6672 | 5944 | inactive |
| Alp10 | DRSC09749 | 0.37 | 1.78 | 5992 | 5444 | inactive |
| Alp10 | DRSC29230 | 1.1 | – | 364 | 244 | inactive |
| CG6429 | DRSC06986 | 18.9 | 12.4 | 6017 | 6963 | inactive |
| Bace | DRSC02197 | 3.75 | 3.8 | 6941 | 6839 | inactive |
| Bace | DRSC28723 | 4.8 | – | 812 | 322 | inactive |
| stai | DRSC22235 | 2.2 | 0.88 | 6355 | 6503 | inactive |
| stai | DRSC28369 | 9.6 | 11.6 | 4282 | 6094 | inactive |
| Ir52a | DRSC06262 | 5.99 | 5 | 6862 | 6774 | inactive |
| CG8785 | DRSC07266 | 4.16 | 6.75 | 6658 | 6649 | inactive |
| Osi5 | DRSC12276 | 3.91 | 5.29 | 6657 | 6638 | inactive |
| CG18131 | DRSC22983 | 1.98 | 10 | 5923 | 6841 | inactive |
| Cyp4d2 | DRSC18458 | 1.59 | 21.8 | 6307 | 3681 | inactive |
| Osi20 | DRSC12568 | 1.85 | 2.26 | 6715 | 6592 | inactive |
| Osi20 | DRSC28630 | 34.5 | 22.1 | 5907 | 5360 | inactive |
| Ent3 | DRSC09822 | 4.49 | 7.32 | 6285 | 5981 | inactive |
| Ent3 | DRSC29706 | 21.8 | 9.37 | 6112 | 6231 | inactive |
| CG31344 | DRSC16069 | 2.61 | 25.6 | 6468 | 6095 | inactive |
| CG31344 | DRSC29593 | – | – | 315 | 382 | inactive |
| lobo | DRSC14662 | 11.5 | 8.28 | 6926 | 1208 | inactive |
| lobo | DRSC14663 | 6.17 | 7.57 | 5833 | 6528 | inactive |
| lobo | DRSC29681 | – | 1.15 | 387 | 348 | inactive |
| CG30278 | DRSC22787 | 4.82 | 17.4 | 6057 | 4921 | inactive |
| CG3632 | DRSC19871 | 2.25 | 1.47 | 6455 | 6400 | inactive |
| Snm1 | DRSC12130 | 8.49 | 23.9 | 6797 | 6083 | inactive |
| VhaPPA1-2 | DRSC16176 | 11.8 | 12.5 | 5193 | 5388 | inactive |
| VhaPPA1-2 | DRSC25591 | 10.8 | 3.43 | 4844 | 6743 | inactive |
| CG9609 | DRSC20199 | 4.39 | 17.2 | 6334 | 6173 | inactive |
| CG9609 | DRSC26952 | 14.2 | 6.79 | 6145 | 6152 | inactive |
| Cpr67Fa2 | DRSC10315 | 2.22 | 5.36 | 6071 | 6181 | inactive |
| wg | DRSC03636 | 5.04 | 4.91 | 5716 | 5682 | inactive |
| wg | DRSC29776 | 20.6 | 13.9 | 6250 | 5922 | inactive |
| CG1441 | DRSC06448 | 25.8 | 21.5 | 5138 | 5877 | inactive |
| CG1441 | DRSC27028 | 3.97 | 6.89 | 6504 | 6327 | inactive |
| Phyhd1 | DRSC14911 | 7.92 | 1.81 | 2627 | 609 | inactive |
| Phyhd1 | DRSC26408 | 3.48 | 8.62 | 6400 | 6546 | inactive |
| hang | DRSC23216 | 0.83 | 0.65 | 6852 | 6307 | inactive |
| hang | DRSC29322 | – | 2.45 | 292 | 1346 | inactive |
| Yif1 | DRSC15817 | – | – | 293 | 294 | inactive |
| Sbds | DRSC10992 | 7.36 | 23.9 | 1563 | 6169 | inactive |
| CG43902 | DRSC17999 | 5.07 | 6.11 | 6356 | 6419 | inactive |
| CG43902 | DRSC25064 | 7.62 | 2.5 | 5653 | 6242 | inactive |
| CG7332 | DRSC20038 | 4.36 | 12.3 | 7069 | 6737 | inactive |
| CG7332 | DRSC28841 | 21.4 | – | 3741 | 401 | inactive |
| CG32453 | DRSC21673 | 2.89 | 5.15 | 6708 | 6966 | inactive |
| Gal | DRSC03134 | 9.98 | 18.3 | 5709 | 5824 | inactive |
| Gal | DRSC24562 | 0.34 | 5.11 | 6536 | 6043 | inactive |
| CG6959 | DRSC16151 | 5.61 | 15.6 | 6771 | 1838 | inactive |
| fray | DRSC16950 | 16.7 | 6.63 | 5819 | 6306 | inactive |
| aln | DRSC08240 | 0.33 | 2.14 | 6323 | 6499 | inactive |

Quoted from the listing (7 entries):
| gene | amplicon | infection score, replicate 1 | infection score, replicate 2 | cell count, replicate 1 | cell count, replicate 2 | activity call |
| --- | --- | --- | --- | --- | --- | --- |
| CG31344 | DRSC29593 | – | – | 315 | 382 | inactive |
| lobo | DRSC14662 | 11.5 | 8.28 | 6926 | 1208 | inactive |
| lobo | DRSC14663 | 6.17 | 7.57 | 5833 | 6528 | inactive |
| lobo | DRSC29681 | – | 1.15 | 387 | 348 | inactive |
| CG30278 | DRSC22787 | 4.82 | 17.4 | 6057 | 4921 | inactive |
| CG3632 | DRSC19871 | 2.25 | 1.47 | 6455 | 6400 | inactive |
| Snm1 | DRSC12130 | 8.49 | 23.9 | 6797 | 6083 | inactive |
